{
  "source": "patent US20110230558A1",
  "about": "(priority 2008, published 2011)",
  "origin": "cited, not measured here",
  "tested_on": "Escherichia coli 0157H7",
  "details": "cited from earlier work",
  "data": [
    {"substance": "ethyl ester of the lauramide of the arginine monohydrochloride [LAE]", "values": [
      {"measurement": "M.I.C.", "result": 20, "unit": "ppm"}
    ]}
  ]
}
